This is an account of results in patent US20210261650A1.

The target in the assay is SARS-CoV-2 Spike (S) protein on pseudotyped virus or live SARS-CoV-2 (SARS-CoV-2 (BetaCoV/Wuhan-Hu-1/2019 for the pseudotypes; USA-WA1/2020 for live virus in paragraph 846)) (UniProt P0DTC2). In words: cell-based or functional assay.

Turning to S309 N55Q MLNS GAALIE (antibody), the EC50, neutralization of live SARS-CoV-2 virus infection was 0.0783 µg/mL and the EC50, neutralization of pseudotyped virus was 0.0221 µg/mL.
